B1: Peptide 1 (Arg-Val-Val-Ile-Ala) (peptide)
chain: RVVIA
B2: Peptide 2 (Lys-Leu-Val-Phe-Phe) (peptide)
chain: KLVFF
B3: Peptide 3 (Leu-Pro-Phe-Phe-Asp) (peptide)
chain: LPFFD
B4: Peptide 4 (Propionyl-Ile-Ile-Gly-Leu) (peptide)
chain: IIGL
B5: Peptide 5 (Propionyl-Arg-Ile-Ile-Gly-Leu) (peptide)
chain: RIIGL
B6: Peptide 6 (Gly-Val-Val-Ile-Ala) (peptide)
chain: GVVIA

Biological target: pathologically-altered prion protein (PrP^Sc) from BSE-positive cattle (cattle), P10279

Q: B1 was tested. Which Efficiency (relative PrP^Sc binding efficiency, peptide 2 = 100%) did it give?
A: Its Efficiency (relative PrP^Sc binding efficiency, peptide 2 = 100%) is 54.7%.

Q: For B2, which Efficiency (relative PrP^Sc binding efficiency, peptide 2 = 100%) is on record?
A: The Efficiency (relative PrP^Sc binding efficiency, peptide 2 = 100%) was 100%.

Q: For B3, which Efficiency (relative PrP^Sc binding efficiency, peptide 2 = 100%) is on record?
A: The Efficiency (relative PrP^Sc binding efficiency, peptide 2 = 100%) was 46.6%.

Q: B4 was tested. Which Efficiency (relative PrP^Sc binding efficiency, peptide 2 = 100%) did it give?
A: Its Efficiency (relative PrP^Sc binding efficiency, peptide 2 = 100%) is 55.1%.

Q: For B5, which Efficiency (relative PrP^Sc binding efficiency, peptide 2 = 100%) is on record?
A: Its Efficiency (relative PrP^Sc binding efficiency, peptide 2 = 100%) is 58.1%.

Q: How did the Efficiency (relative PrP^Sc binding efficiency, peptide 2 = 100%) turn out when B6 was run?
A: The Efficiency (relative PrP^Sc binding efficiency, peptide 2 = 100%) was 64.5%.

From patent publication US20060094071A1, “Method for enriching and tracking pathologic modified prions-proteins(prpsc)” (priority 2002, published 2006)
